Anti-infective test results gathered from many reports (values: NIAID ChemDB through PubChem).

All rows: whole-cell or culture tests; agent: HIV-2; cell line: MT-4; read-out: EC50

ECn is the concentration giving n% inhibition of infection, replication or growth. Blank or dashed fields: not listed here. Neighbouring rows are from separate reports.

SMILES,strain or isolate,mutations,method,value
CC(=O)c1ccc(C)cc1NC(C(N)=O)c1c(Cl)cccc1Cl,EHO,RT-S102L E219D,cytopathic effect / MTT,28.5 µM
CN(C)c1ncnc2c1ncn2[C@@H]1O[C@H](CO[Si](C)(C)C(C)(C)C)C2(OS(=O)(=O)C=C2N)[C@H]1O[Si](C)(C)C(C)(C)C,ROD,-,trypan blue,>4 µg/mL
CO[C@@H]1[C@@H](O)[C@@H](O)[C@H](O)[C@H](O)[C@H]1n1ccc(N)nc1=O,-,-,cytopathic effect / MTT,<10 µg/mL
Cc1cn([C@H]2C[C@H](N=[N+]=[N-])[C@@H](CO)O2)c(=O)nc1N(C)N,ROD,-,MTT / ELISA,0.06 µM
CCOP(=O)(N[C@@H](CC(C)C)C(=O)OC)OC[C@H]1O[C@@H](n2cc(C)c(=O)[nH]c2=O)C[C@@H]1N=[N+]=[N-],ROD,-,cytopathic effect / MTT,0.2 µg/mL
CN(C)S(=O)(=O)N1CCC(NC(=O)c2cc(O)c(O)c(O)c2)CC1,ROD,-,MTT,>34.8 µM
C[C@@H](Cn1cnc2c(N)nc(N)nc21)OCP(=O)(O)O,ROD,-,cytopathic effect / trypan blue,7.9 µM
CC(C)Nc1cccnc1N1CCN(C(=O)c2cc3cc(NS(C)(=O)=O)ccc3[nH]2)CC1,EHO,RT-S102L E219D,cytopathic effect / MTT,>47.3 µM
Cc1cc(C)cc(S(=O)(=O)N2CCC(NC(=O)c3cc(O)c(O)c(O)c3)CC2)c1,ROD,-,MTT,>74 µM
CC(C)(C)[Si](C)(C)OC[C@H]1O[C@@H](n2cnc3c(N)ncnc32)[C@H](O[Si](C)(C)C(C)(C)C)C12OS(=O)(=O)C=C2N,ROD,-,trypan blue,>4 µg/mL
CCCN(C)C(=O)Oc1nsnc1-c1c(Cl)ccc(N)c1Cl,EHO,-,cytopathic effect / MTT,>18 µM
CO[C@@H]1[C@@H](O)[C@@H](O)[C@H](O)[C@H](O)[C@H]1n1ccc(N)nc1=O.O=C(O)/C=C/C(=O)O,-,-,cytopathic effect / MTT,>10 µg/mL
CCn1cc(C(=O)O)c(=O)c2cc(F)c(N3CCN(c4ccccc4OC)CC3)c(OC(F)F)c21,EHO,-,cytopathic effect / MTT,0.39 µM
Cc1ccc(C(=O)N2CCC(NC(=O)c3cc(O)c(O)c(O)c3)CC2)cc1,ROD,-,MTT,>29.6 µM
CC(=O)Oc1ccc(/C=C/C(=O)O[C@H](C(=O)O)[C@H](OC(=O)/C=C/c2ccc(OC(C)=O)c(OC(C)=O)c2)C(=O)O)cc1OC(C)=O,ROD,-,cytopathic effect / MTT,5 µM
COc1c(O)c(Cl)c2c(c1OC)-c1c(c(Cl)c(O)c(OC)c1OC)C[C@H](C)[C@H](C)C2,ROD,-,cytopathic effect / MTT,>22 µM
CCCCCCCCCCCCCCCC(=O)Nc1cc(S(=O)(=O)O)cc2cc(S(=O)(=O)O)cc(O)c12,ROD,-,cytopathic effect / MTT,30 µM
C[C@H](CCC(=O)NCCS(=O)(=O)O)[C@H]1CC[C@H]2[C@@H]3CC[C@@H]4C[C@H](O)CC[C@]4(C)C3CC[C@]12C,ROD,-,cytopathic effect / MTT,>194 µg/mL
Cc1cn([C@H]2C[C@H](N=[N+]=[N-])[C@@H](CO)O2)c(=O)[nH]c1=O,-,-,cytopathic effect / MTT,<10 µg/mL
Cc1cn([C@H]2C[C@H](N=[N+]=[N-])[C@@H](CO)O2)c(=O)[nH]c1=O,ROD,-,MTT,0.0071 µM
CC(C)(C)OC(=O)[C@@H]1CCCN1C[C@H](O)[C@H](Cc1ccccc1)NC(=O)[C@H](CC(N)=O)NC(=O)OCc1ccccc1,ROD,-,cytopathic effect / MTT,90 µg/mL
CC(C)=CCN1Cc2cccc3[nH]c(=S)n(c23)C[C@@H]1C,CBL-20,-,cytopathic effect / MTT,>105 µM
O=c1[nH]cnc2c1ncn2[C@H]1CC[C@@H](CO)O1,-,-,-,16 µg/mL
NOCc1c(F)cccc1Cl,EHO,-,cytopathic effect / MTT,6.6 µg/mL
Cn1cnc2ncn([C@@H]3O[C@H](CO[Si](C)(C)C(C)(C)C)C4(OS(=O)(=O)C=C4N)[C@H]3O[Si](C)(C)C(C)(C)C)c2c1=O,ROD,-,trypan blue,>100 µg/mL
CCCCCCCCCCCCOC1OC(COS(=O)(=O)O)C(OC2OC(COS(=O)(=O)O)C(OC3OC(COS(=O)(=O)O)C(OC4OC(COS(=O)(=O)O)C(OC5OC(COS(=O)(=O)O)C(OC6OC(COS(=O)(=O)O)C(OS(=O)(=O)O)C(OS(=O)(=O)O)C6O)C(OS(=O)(=O)O)C5OS(=O)(=O)O)C(O)C4OS(=O)(=O)O)C(OS(=O)(=O)O)C3O)C(OS(=O)(=O)O)C2O)C(O)C1OS(=O)(=O)O,ROD,-,cytopathic effect / MTT,0.9 µg/mL
O=C(NC1CCNCC1)c1cc(O)c(O)c(O)c1,ROD,-,MTT,>42.1 µM
COC(=O)C(Cc1ccccc1)NC(=O)[C@@H](NC(=O)[C@@H](C[C@H](O)[C@H](CC1CCCCC1)NC(=O)[C@@H](NC(=O)[C@H](Cc1ccccc1)CS(=O)(=O)C(C)(C)C)C(C)C)C(C)C)C(C)C,EHO,RT-E219D,cytopathic effect / MTT,5 µM
Cc1ccnc2c1NC(=O)c1cccnc1N2C1CC1,ROD,-,MTT,>15 µM
O=C(CCCCCCCCCCC(=O)Nc1cc(S(=O)(=O)O)cc2cc(S(=O)(=O)O)cc(O)c12)Nc1cc(S(=O)(=O)O)cc2cc(S(=O)(=O)O)cc(O)c12,ROD,-,cytopathic effect / MTT,52 µM